Assay results: US20130023585A1, “Neuraminidase Inhibitors” (TSRL, INC., priority 2010, published 2013)

Legend:
[1] = BALB/c, mouse, in vivo, 10 mg/kg/day
[2] = system: Flu A Duck/MN/1525/81 (H5N1); assay type: cell-based, influenza virus

CCC(CC)O[C@@H]1C=C(C(=O)O)C[C@H](NC(=N)N)[C@H]1NC(C)=O [GOC, 4-guanidinio oseltamivir carboxylate]
Survivors/Total [1]: 5/5
fold more active than OC [2]: 100 fold
